PubChem BioAssay AID1259414 | Drosophila RNAi Screening Center, 2018
Purpose: 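Host factors increasing or decreasing Wolbachia levels in cultured fly cells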 (primary screen). System: Drosophila JW18 cells infected with Wolbachia. Reagent: long dsRNA against Drosophila genes, 0.25 µg dsRNA per well of a 384-well plate. Duration: 5 days. Conditions: cells persistently infected with Wolbachia before knock-down; no added drug. Measurement: 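Imaged fluorescence in situ signal for Wolbachia 23S rRNA per DAPI-counted host cell, given as a robust z-score within each plate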. Scale: Wolbachia per cell robust z: higher = more Wolbachia per host cell than the plate typical. Hit rule: 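Active if absolute robust z reaches 1.5 in two or more of three replicates, leaving out multi- or no-target dsRNAs, genes unexpressed in JW18 and A1 wells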.
In all, the deposit lists about 24,000 reagents; this is a random part of those that have a named target and a result. Over the whole deposit, about 1,210 (5%) are marked active. 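Inactive calls also include excluded dsRNAs with several or no targets, genes unexpressed in JW18, and well A1, regardless of score.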

| gene | DRSC id | Wolbachia per cell robust z, rep 1 | Wolbachia per cell robust z, rep 2 | Wolbachia per cell robust z, rep 3 | Outcome |
| --- | --- | --- | --- | --- | --- |
| CG14683 | DRSC17035 | -9.61 | -4.85 | 0.0459 | active |
| CG3253 | DRSC04350 | 0.0482 | -0.62 | -0.117 | inactive |
| CG3253 | DRSC29358 | 1.44 | 0.919 | 0.495 | inactive |
| CG6654 | DRSC16084 | -0.185 | -0.42 | -0.159 | inactive |
| CG8112 | DRSC16377 | 0.349 | 0.607 | -0.365 | inactive |
| antr | DRSC22392 | 0.985 | -2.88 | -0.907 | inactive |
| Mt2 | DRSC03374 | 1.34 | 0.306 | 0.329 | inactive |
| CG33293 | DRSC38666 | 0.702 | -1.17 | -0.595 | inactive |
| pzg | DRSC11848 | 0.975 | 1.04 | -3.13 | inactive |
| shi | DRSC20373 | 1.46 | -1.58 | 10.9 | inactive |
| shi | DRSC29498 | 1.33 | -0.68 | 0.463 | inactive |
| CG14369 | DRSC14831 | -0.505 | -0.429 | -0.815 | inactive |
| CG14369 | DRSC25713 | 1.54 | 0.121 | -0.218 | inactive |
| CG9380 | DRSC04549 | 0.218 | -1.05 | -0.026 | inactive |
| Cpr11B | DRSC19859 | 0.224 | -0.518 | 0.587 | inactive |
| CG3117 | DRSC38930 | -3.59 | -0.737 | -1.16 | inactive |
| CenG1A | DRSC02538 | 0.354 | 0.462 | 0.199 | inactive |
| CenG1A | DRSC03505 | 0.239 | -0.455 | 1.3 | inactive |
| CenG1A | DRSC03506 | 0.439 | 1.37 | 1.52 | inactive |
| CenG1A | DRSC28029 | 0.436 | -0.278 | -1.57 | inactive |
| Ugt37E1 | DRSC02248 | -0.901 | -2.76 | -0.413 | inactive |
| Ugt37E1 | DRSC24769 | -0.0873 | -0.338 | 0.435 | inactive |
| DopEcR | DRSC08529 | 0.625 | 0.052 | -0.859 | inactive |
| metro | DRSC06341 | 0.0359 | 1.44 | -1.36 | inactive |
| metro | DRSC06725 | -0.000792 | -0.8 | -0.247 | inactive |
| metro | DRSC27336 | 0.322 | -0.135 | 0.0143 | inactive |
| CG15482 | DRSC02492 | 0.564 | 0.751 | -0.306 | inactive |
| CG17707 | DRSC20650 | 0.104 | 0.286 | 0.604 | inactive |
| CG8778 | DRSC07264 | 0.197 | -0.293 | -1.95 | inactive |
| Rift | DRSC14330 | -0.846 | -0.047 | 0.849 | inactive |
| cocoon | DRSC10916 | -2 | 0.445 | 0.739 | inactive |
| cocoon | DRSC28623 | -0.0792 | 1.43 | -0.836 | inactive |
| eco | DRSC11006 | 1.06 | 1.32 | -0.413 | inactive |
| CG1663 | DRSC06613 | -0.582 | 0.441 | 0.244 | inactive |
| CG1663 | DRSC22488 | 0.491 | 0.584 | 0.0526 | inactive |
| CG1663 | DRSC28315 | 0.5 | 0.699 | -0.0283 | inactive |
| CG13917 | DRSC08386 | -1.12 | 0.834 | 0.0399 | inactive |
| CG13917 | DRSC26895 | 0.974 | 0.966 | 1.57 | inactive |
| bip1 | DRSC11327 | -0.344 | 0.184 | -0.882 | inactive |
| Tpc1 | DRSC15614 | 0.695 | -1.71 | -0.0898 | inactive |
| Tpc1 | DRSC16074 | -0.216 | -3.63 | 0.0842 | inactive |
| Tpc1 | DRSC29490 | -1.45 | -0.582 | -0.834 | inactive |
| Tpst | DRSC18989 | 0.512 | 0.369 | -0.885 | inactive |
| Tpst | DRSC19696 | -1.9 | -1.02 | -0.0143 | inactive |
| Tpst | DRSC19723 | 0.755 | 0.763 | -0.61 | inactive |
| Tpst | DRSC24990 | -2.68 | -7.36 | -11.8 | inactive |
| Tpst | DRSC25122 | 0.837 | 0.358 | -2.74 | inactive |
| Tpst | DRSC25422 | 0.0205 | 0.306 | -1.35 | inactive |
| CG13920 | DRSC08389 | -0.79 | 0.536 | -3.1 | inactive |
| Fuca | DRSC10591 | -0.96 | -4.19 | -6.24 | inactive |
| psidin | DRSC15660 | 0.618 | 0.971 | 1.04 | inactive |
| CG15535 | DRSC15071 | -0.0974 | 0.0388 | -0.769 | inactive |
| Nup93-2 | DRSC16221 | -0.0432 | -5.97 | -6.81 | active |
| CG32603 | DRSC19409 | -5 | 0.563 | -4.17 | inactive |
| CG32603 | DRSC21586 | -0.0345 | 0.14 | -1.15 | inactive |
| CG32603 | DRSC25240 | -0.579 | -0.22 | -1.47 | inactive |
| eloF | DRSC15162 | 0.461 | 0.587 | 0.739 | inactive |
| eloF | DRSC25406 | -0.0331 | 0.223 | -5.61 | inactive |
| lncRNA:CR9284 | DRSC03899 | 0.228 | -5.36 | -0.103 | inactive |
| lncRNA:CR9284 | DRSC04536 | 0.514 | 0.45 | -1.02 | inactive |
| CR40801 | DRSC38667 | 0.611 | -0.607 | -0.167 | inactive |
| Tep3 | DRSC03452 | 0.272 | 0.789 | -0.161 | inactive |
| Spn38F | DRSC03616 | 2.17 | -0.665 | 0.858 | inactive |
| Spn38F | DRSC24629 | -0.865 | 0.193 | -0.0917 | inactive |
| Spn38F | DRSC40870 | 1.11 | 0.383 | 0.856 | inactive |
| Grip163 | DRSC10538 | 0.597 | -0.129 | -2.85 | inactive |
| Grip163 | DRSC26469 | 0.0163 | -1.99 | -0.87 | inactive |
| kairos | DRSC23286 | 0.148 | 0.539 | -0.306 | inactive |
| kairos | DRSC30011 | -9.46 | -0.926 | -11.1 | inactive |

6 successive records already listed:
| gene | DRSC id | Wolbachia per cell robust z, rep 1 | Wolbachia per cell robust z, rep 2 | Wolbachia per cell robust z, rep 3 | Outcome |
| --- | --- | --- | --- | --- | --- |
| DopEcR | DRSC08529 | 0.625 | 0.052 | -0.859 | inactive |
| metro | DRSC06341 | 0.0359 | 1.44 | -1.36 | inactive |
| metro | DRSC06725 | -0.000792 | -0.8 | -0.247 | inactive |
| metro | DRSC27336 | 0.322 | -0.135 | 0.0143 | inactive |
| CG15482 | DRSC02492 | 0.564 | 0.751 | -0.306 | inactive |
| CG17707 | DRSC20650 | 0.104 | 0.286 | 0.604 | inactive |
